Anti-infective test results gathered from many reports (values: NIAID ChemDB through PubChem).

All rows: whole-cell or culture tests; species: Varicella zoster virus; read-out: EC50

ECn: concentration that inhibits the pathogen or its effect by n%.

| SMILES | strain or isolate | method | cell line | value |
|---|---|---|---|---|
| COC(c1cn([C@H]2C[C@H](O)[C@@H](CO)O2)c(=O)[nH]c1=O)C(I)I | ELLEN | plaque count | HFF | 91 µM |
| CCCCCc1ccc(-c2cc3cn(C4CC[C@@H](CO)O4)c(=O)nc3o2)cc1 | 07/1 (TK-) | plaque count | HEL | >20 µM |
| Nc1nc(N)c2ncn(OCCOCP(=O)(O)O)c2n1 | ELLEN | plaque count | MRC-5 | 3.9 µM |
| Nc1ncnc2c1ncn2[C@@H]1C=C(CO)[C@@H](O)[C@H]1O | 07/1 YS/R (TK-) | cytopathic effect | HEL | >20 µg/mL |
| Nc1cc(OCCOCP(=O)(O)O)nc(N)n1 | OKA | cytopathic effect | HEL | 4.5 µM |
| CC(C)C[C@H](NC(=O)n1nnc2ccccc21)C(=O)NCC1CCCCC1 | 07/1 (TK-) | plaque count | HEL | >16 µg/mL |
| Nc1nc2c(ncn2[C@H]2C=C[C@@H](CO)[C@H](O)C2)c(=O)[nH]1 | 07/1 (TK-) | cytopathic effect | E6SM | 5.8 µg/mL |
| Nc1nc2c(ncn2[C@@H]2C[C@H](CO)[C@H]2O)c(=O)[nH]1 | - | plaque count | - | 2–4 µM |
| Nc1nc2c(ncn2CCC(CO)CO)c(=O)[nH]1 | ELLEN | plaque count | MRC-5 | 2.4 µg/mL |
| O=c1[nH]c(=O)c2ncn([C@@H]3O[C@H](CO)[C@H]3CO)c2[nH]1 | TK+/YS | plaque count | HEL | 151.3 µg/mL |
| CC(C)CS[C@H]1C[C@@H](n2cnc3c(N)ncnc32)[C@H](O)[C@@H]1O | YS | cytopathic effect | HEL | >200 µg/mL |
| OC[C@H]1O[C@@H](c2cc(C#CBr)c(F)cc2F)C[C@@H]1O | YS/R (TK-) | plaque count | HEL | >50 µM |
| COC(=O)[C@H](C)NP(=O)(OCC1C/C1=C/n1cnc2c(N)ncnc21)Oc1ccccc1 | - | cytopathic effect | HFF | 7.6 µM |
| O=c1[nH]c(=O)n([C@@H]2O[C@H](CO)[C@@H](O)[C@@H]2O)cc1/C=C/Br | Kawaguchi | plaque count | - | 0.00111 µg/mL |
| CC(C)C1NC(=O)N(C2CCCC2)C1=O | OKA (TK+) | plaque count | HEL | 84 µg/mL |
| O=c1[nH]c(=O)n([C@H]2C[C@H](O)[C@@H](CO)O2)cc1C(O)C(Cl)I | ELLEN | plaque count | HFF | 6.9 µM |
| CCCCCCCCc1cc2cn([C@H]3C[C@H](O)[C@@H](CCl)O3)c(=O)nc2o1 | - | - | HEL | >5 µM |
| C=Cc1cc([C@H]2C[C@H](O)[C@@H](CO)O2)c(F)cc1F | OKA | plaque count | HEL | >200 µM |
| Nc1nc2c(ncn2COCCO)c(=O)[nH]1 | YS/R (TK-) | cytopathic effect | HEL | 20 µg/mL |
| O=c1nc2oc(-c3ccccc3)cc2cn1C1CC[C@@H](CO)O1 | YS (TK+) | plaque count | HEL | >200 µM |
| CCCCCCCCCCCCc1cc2cn([C@H]3C[C@H](O)[C@@H](CO)O3)c(=O)nc2o1 | OKA | plaque count | HEL | 0.8 µM |
| COc1cc(OC)c(NC(=S)Nc2ccc(NC(=O)c3ccco3)cc2)cc1Cl | ELLEN | - | HFF | >20 µM |
| COc1nc(N)nc2c1ncn2OCCOCP(=O)(O)O | ELLEN | plaque count | MRC-5 | <0.09 µM |
| Nc1nc2c(ncn2/C=C2/CC2(CO)CO)c(=O)[nH]1 | ELLEN | plaque count | HFF | >380 µM |
| CCCCCCCOc1ccc(-c2cc3cn([C@H]4C[C@H](O)[C@@H](CO)O4)c(=O)nc3o2)cc1 | YS/R (TK-) | cytopathic effect | HEL | >50 µM |
| Cn1cc(C(=O)NCc2ccc(Cl)cc2)c(=O)c2cc(/C=C\CO)cc(F)c21 | - | plaque count | VERO | 0.4 µM |
| OC[C@H]1O[C@@H](c2cc(C#CI)c(F)cc2F)C[C@@H]1O | OKA | plaque count | HEL | >20 µM |
| N#CCc1c(N)nc(N)nc1OCCOCP(=O)(O)O | OKA | cytopathic effect | HEL | 140 µM |
| CC(NC(=S)Nc1ccc(NC(=O)c2ccccc2F)cc1)c1ccc(F)cc1 | ELLEN | ELISA | HFF | 0.26 µg/mL |
| CCCCCCCCc1cc2cn([C@@H]3O[C@H](CO)[C@@H](O)[C@H]3O)c(=O)nc2o1 | - | plaque count | HEL | 23 µM |
| Nc1ccn(C[C@@H](CO)OCP(=O)(O)O)c(=O)n1 | OKA (WILD TYPE) | cytopathic effect | HEL | 0.21 µM |
| Nc1cc(OC[C@H](CO)OCP(=O)(O)O)nc(N)n1 | OKA | cytopathic effect | HEL | 0.17 µM |
| CCCCCCCCCCCc1cc2cn([C@H]3C[C@H](O)[C@@H](CO)O3)c(=O)nc2o1 | YS | plaque count | HEL | 0.37 µM |
| NC1=NC2C(C=CN2CC(CO)CCO)C(=O)N1 | 32 | plaque count | MRC-5 | 0.72 µM |
| Nc1nc(N)c2ncn([C@@H]3O[C@H](CO)[C@H]3CO)c2n1 | (TK-)/YS/R | plaque count | HEL | 5.2 µg/mL |
| Cn1cc(C(=O)NCc2ccc(Cl)cc2)c(=O)c2cc(CN3CCOCC3)ccc21 | 20 isolates | plaque count | - | 0.34 µM |
| CC(C)[C@H](N)C(=O)OCC(COC(=O)[C@@H](N)C(C)C)OCn1cnc2c(=O)[nH]c(N)nc21 | - | plaque count | HFF | 11.3 µM |
| COC(c1cn([C@H]2C[C@H](O)[C@@H](CO)O2)c(=O)[nH]c1=O)C(Cl)Br | ELLEN | plaque count | HFF | 7.5 µM |
| O=C(Nc1ccc(NC(=S)NCCc2cc3ccccc3o2)cc1)c1cc2ccccc2o1 | ELLEN | ELISA | HFF | 0.2 µg/mL |
| O=c1nc2oc(-c3ccc(Br)cc3)cc2cn1[C@H]1C[C@H](O)[C@@H](CO)O1 | 07/1 (TK-) | cytopathic effect | HEL | >50 µM |
| O=C(O)P(=O)(O)O | Clinical isolate VZV-33 | cytopathic effect | HEL | 89.7 µM |
| CCCCCCCc1cc2cn([C@H]3C[C@H](O)[C@@H](CO)O3)c(=O)nc2o1 | YS | plaque count | HEL | 0.33 µM |
| Cc1cn([C@@H]2O[C@H](CO)[C@@H](O)[C@@H]2O)c(=O)[nH]c1=O | Kawaguchi | plaque count | - | 0.153 µg/mL |
| O=C(Nc1ccc(NC(=S)Nc2cc3ccccc3o2)cc1)c1nccc2ccccc12 | ELLEN | ELISA | HFF | 0.05 µg/mL |
| C=CCCCCc1cc2cn([C@H]3C[C@H](O)[C@@H](CO)O3)c(=O)nc2o1 | YS | plaque count | HEL | 33 µM |
| Nc1ncnc2c1ncn2/C=C1/CC1(CO)CO | - | cytopathic effect | HFF | >380 µM |
| O=c1[nH]c(=O)n(C2C[C@H](CO)[C@H]2CO)cc1C=CBr | ITO | plaque count | WI-38 | 0.01–0.05 µM |
| CCOc1ccc(-c2cc3cn([C@H]4C[C@H](O)[C@@H](CO)O4)c(=O)nc3o2)cc1 | YS | cytopathic effect | HEL | <0.5 µM |
| O=c1c2ncn(COC(CO)CO)c2nc2[nH]c(-c3ccccc3)cn12 | 07/1 (TK-) | plaque count | HEL | 3 µg/mL |
| O=c1[nH]c(=O)n([C@H]2C[C@H](Cl)[C@@H](CO)O2)cc1I | - | - | HEL | >5 µM |
| CCCCCCCCCCCCc1cc2cn([C@H]3C[C@H](O)[C@@H](CO)O3)c(=O)nc2[nH]1 | YS | plaque count | HEL | 14 µM |
| COc1ccc(-c2cc3cn([C@H]4C[C@H](O)[C@@H](CO)O4)c(=O)nc3o2)cc1 | YS | cytopathic effect | HEL | <0.5 µM |
| O=c1[nH]c(=O)n([C@H]2C[C@H](O)[C@@H](CO)O2)cc1C(O)C(Br)I | ELLEN | plaque count | HFF | 6 µM |
| CCc1nc([N+](=O)[O-])c(Sc2ccccc2)n1Cc1ccccc1 | OKA (TK+) | cytopathic effect | HEL | 0.25 µg/mL |
| CCCCCCCOc1ccc(-c2cc3cn([C@H]4C[C@H](O)[C@@H](CO)O4)c(=O)nc3o2)cc1 | OKA | plaque count | HEL | 0.006 µM |
| Nc1nc2c(ncn2CCC(CO)CO)c(=O)[nH]1 | Oka CF1603-resistant | cytopathic effect | HEL | ≥70.3 µM |
| CC(C)C[C@H](NC(=O)n1nnc2ccccc21)C(=O)NC1CCCCC1 | 07/1 (TK-) | plaque count | HEL | >16 µg/mL |
| Cc1c(N)nc(N)nc1OCCOCP(=O)(O)O | 07/1 (TK-) | cytopathic effect | HEL | 42 µM |
| CCCCCCCCc1cc2cn([C@H]3C[C@H](Cl)[C@@H](CO)O3)c(=O)nc2o1 | - | - | HEL | >5 µM |
| Cc1cn([C@H]2C[C@@H](N=[N+]=[N-])[C@@H](CO)O2)c(=O)[nH]c1=O | OKA | plaque count | - | >250 µM |
| CCCCCCOc1ccc(-c2cc3cn([C@H]4C[C@H](O)[C@@H](CO)O4)c(=O)nc3o2)cc1 | YS | plaque count | HEL | 0.0014 µM |
| Nc1ncnc2c1ncn2C[C@@H](CO)OCP(=O)(O)O | OKA | cytopathic effect | HEL | 0.004 µg/mL |
| O=c1[nH]c(=O)n([C@H]2C[C@H](O)[C@@H](CO)O2)cc1C(O)C(Cl)Cl | ELLEN | plaque count | HFF | 6 µM |
| Nc1nc2c(ncn2COCCO)c(=O)[nH]1 | - | plaque count | - | 3.8 µg/mL |
| CCCCCCCOCCc1cc2cn([C@H]3C[C@H](O)[C@@H](CO)O3)c(=O)nc2o1 | YS | plaque count | HEL | 8.1 µM |

Repeating the final 5 entries:

SMILES | strain or isolate | method | cell line | value
CCCCCCOc1ccc(-c2cc3cn([C@H]4C[C@H](O)[C@@H](CO)O4)c(=O)nc3o2)cc1 | YS | plaque count | HEL | 0.0014 µM
Nc1ncnc2c1ncn2C[C@@H](CO)OCP(=O)(O)O | OKA | cytopathic effect | HEL | 0.004 µg/mL
O=c1[nH]c(=O)n([C@H]2C[C@H](O)[C@@H](CO)O2)cc1C(O)C(Cl)Cl | ELLEN | plaque count | HFF | 6 µM
Nc1nc2c(ncn2COCCO)c(=O)[nH]1 | - | plaque count | - | 3.8 µg/mL
CCCCCCCOCCc1cc2cn([C@H]3C[C@H](O)[C@@H](CO)O3)c(=O)nc2o1 | YS | plaque count | HEL | 8.1 µM

Lines come from different laboratories, so protocols vary. a–b is a range or a potency band. An empty or dashed field is not shown.